System: HIVLAI
Test: antiviral activity in MT-2 human-T-lymphoid cells exposed to HIVLAI
Assay type: cell-based, HIV-1
Conditions: read-out: antiviral IC50
Protocol: Enantiomerically pure ligand alcohol 3 is converted into HIV-1 PI 2 as shown in Scheme 4 (FIG. 6). Reaction of the known (R)-(hydroxyethyl)sulfonamide isostere 4 with carbonate 14 in the presence of DIPEA at 23° C. for 5 days furnished HIV-1 PI 2 (e.g., in 84% yield).

CC(C)CN(C[C@@H](O)[C@H](Cc1cc(F)cc(F)c1)NC(=O)O[C@H]1[C@H]2CO[C@H]3OC[C@@H]1[C@H]3C2)S(=O)(=O)c1ccc2nc(NC3CC3)sc2c1
IC50: 0.017 nM
